Source: patent US20170248602A1

Target: SNAP-25 cleavage product in lysate of Neuro-2a cells treated with re-targeted endopeptidase (mouse (Neuro-2a cells)) (UniProt P60879)

| Substance | Signal/Noise Ratio (10 nM/0 nM) |
| --- | --- |
| C-18 α-SNAP-25 goat polyclonal antibodies (Santa Cruz Biotechnology) | 0.8 and 0.9 |
| H-50 α-SNAP-25 rabbit polyclonal antibodies (Santa Cruz Biotechnology) | 0.9 and 1 |
| MC-6050 mouse α-SNAP-25 monoclonal antibody (Research & Diagnostic Antibodies) | 5 |
| MC-6053 mouse α-SNAP-25 monoclonal antibody (Research & Diagnostic Antibodies) | 7.1 |
| N-19 α-SNAP-25 goat polyclonal antibodies (Santa Cruz Biotechnology) | 0.9 and 1.1 |
| SMI-81 mouse α-SNAP-25 monoclonal antibody (Sternberger Monoclonals) | 1.1 and 1 and 0.8 |
| SP12 α-SNAP-25 mouse polyclonal antibodies (Santa Cruz Biotechnology) | 1 |

Values joined by “and” are separate entries in the source; they are usually repeats but may differ in a detail not shown here. Equal values may be shown once.
